Source: PubChem BioAssay AID504761 (Drosophila RNAi Screening Center, 2011)

Assay: 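Genome-wide fly cell screen for genes dengue virus requires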 (primary screen)
System: D.Mel-2 cells from Drosophila
Reagents: long dsRNA against Drosophila genes
Conditions: infection with dengue virus type 2; dose and infection time not stated
Measurement: 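Per well on two replicate plates, imaging gave the percent of cells positive for viral envelope protein, ranked by infection, and a nuclear count of cells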
Reading the numbers: infection score: higher = more virus-infected cells
Call rule: 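Very low infection ranking in both replicate wells (chance probability at most 0.065), then a retest showing infection dropped 1.5-fold or more at p below 0.05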
Calls: active = confirmed: knock-down lowers infection; inactive = not picked or not confirmed
The deposit covers about 22,000 reagents; shown is an unselected part of those that have a named target and a result. Over the whole deposit, 116 (0.52%) got an active call. 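Calls depend on retest data that are not deposited; infection was ranked per plate without normalising between plates; the unit of the infection score is not given.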 A number with no mark means an inactive call. The numbers tell different reagents against one gene apart. Names joined by + are all predicted targets of the reagent. Further read-outs or replicates are left out here. Not given: the amount of reagent, the time to read-out.

CG15097 #1 → infection score, replicate 1: 8.65
CG15097 #2 → infection score, replicate 1: 13.3
pcs → infection score, replicate 1: 5.31
CG30484 → infection score, replicate 1: 5.33
by #1 → infection score, replicate 1: 4.25
by #2 → infection score, replicate 1: 23.3
ZnT41F → infection score, replicate 1: 13.3
CG12992 → infection score, replicate 1: 4.33
bocks → infection score, replicate 1: 7.26
CG30411 #1 → infection score, replicate 1: 1.4
CG30411 #2 → infection score, replicate 1: 5.29
CG11566 (retired record) + stg1 #1 → infection score, replicate 1: 6.92
CG11566 (retired record) + stg1 #2 → infection score, replicate 1: 3.54
CG11566 (retired record) + stg1 #3 → infection score, replicate 1: 3.83
CG11566 (retired record) + stg1 #4 → infection score, replicate 1: 6.34

A portion from the list above, for reference:
CG11566 (retired record) + stg1 #2 → infection score, replicate 1: 3.54
CG11566 (retired record) + stg1 #3 → infection score, replicate 1: 3.83
